Experimental data: PubChem BioAssay AID624099 (ICCB-Longwood, 2012)
Here is an unselected part of about 21,000 reagents. 497 of all reagents (2.4%) were called active. 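Higher z means weaker E2 silencing; only reporter increases were scored, and knock-downs that hurt cell survival may mask genuine repressor factors.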 Reagent sequences are not shown.

Purpose: 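Knock-downs relieving repression by E2 of an HPV18 LCR luciferase reporter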 (primary screen)
System: human C33A cervical carcinoma cells (HPV-negative) stably expressing BPV1 E2 and an HPV18 LCR luciferase reporter
Reagent: siRNA pool against human genes, 40 nM
Timing: 72 h
Read-out: 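HPV18 LCR reporter light per well, converted to plate-wise z-scores that exclude control wells, and averaged over triplicate plates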
Direction: mean z-score and z-score: higher = stronger reporter signal, weaker E2 silencing
Active means: 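Hit if mean z-score reaches 2 and two or more of three replicate z-scores also reach 2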

For FZD10 (frizzled class receptor 10), the entry reads mean z-score 0.45; z-score, replicate A = 0.54; z-score, replicate B = 0.46; z-score, replicate C = 0.34; inactive. Knock-down of SPAG11B (sperm associated antigen 11B) gave: mean z-score 1.03; z-score, replicate A = 1.21; z-score, replicate B = 0.88; z-score, replicate C = 0.98; inactive. Against IRS1 (insulin receptor substrate 1), the entry reads mean z-score 0.15; z-score, replicate A = 0.32; z-score, replicate B = -0.39; z-score, replicate C = 0.53; inactive. LYPLAL1 (lysophospholipase like 1) showed mean z-score 0.34; z-score, replicate A = 0.25; z-score, replicate B = 0.5; z-score, replicate C = 0.27; inactive. MIA3 (MIA SH3 domain ER export factor 3) scored mean z-score 0.64; z-score, replicate A = 1.08; z-score, replicate B = 0.46; z-score, replicate C = 0.39; inactive. Depletion of ZNF500 (zinc finger protein 500) resulted in: mean z-score -1.1; z-score, replicate A = -1.16; z-score, replicate B = -1.08; z-score, replicate C = -1.06; inactive.

CCDC83 (coiled-coil domain containing 83) scored mean z-score -0.93; z-score, replicate A = -0.86; z-score, replicate B = -0.9; z-score, replicate C = -1.03; inactive. For ETV3L (ETS variant transcription factor 3 like), the entry reads mean z-score -0.84; z-score, replicate A = -0.56; z-score, replicate B = -0.85; z-score, replicate C = -1.11; inactive. After knock-down of GSTT1 (glutathione S-transferase theta 1), the record shows mean z-score -0.83; z-score, replicate A = -0.81; z-score, replicate B = -0.92; z-score, replicate C = -0.76; inactive. Silencing of DIO1 (iodothyronine deiodinase 1) gave: mean z-score 0.38; z-score, replicate A = 0.41; z-score, replicate B = 0.63; z-score, replicate C = 0.09; inactive. GJA1 (gap junction protein alpha 1) gave mean z-score 1.51; z-score, replicate A = 1.43; z-score, replicate B = 1.22; z-score, replicate C = 1.88; inactive. After knock-down of SLC1A7, the record shows mean z-score 0.12; z-score, replicate A = -0.16; z-score, replicate B = 0.29; z-score, replicate C = 0.24; inactive.

Part of the list above in another layout.
{"Target gene": "IRS1 (insulin receptor substrate 1)", "mean z-score": 0.15, "z-score, replicate A": 0.32, "z-score, replicate B": -0.39, "z-score, replicate C": 0.53, "outcome": "inactive"}
{"Target gene": "LYPLAL1 (lysophospholipase like 1)", "mean z-score": 0.34, "z-score, replicate A": 0.25, "z-score, replicate B": 0.5, "z-score, replicate C": 0.27, "outcome": "inactive"}
